Laboratory results reported in article PMC8247773, “Benzohydrazide and Phenylacetamide Scaffolds: New Putative ParE Inhibitors” (Frontiers in Bioengineering and Biotechnology, 2021).
The source holds more than one record for some entries. Only these are listed. The source may hold further records. Results that share an entry differ, and nothing given here explains why; some may be repeats, others may stem from another dose, organism or construct than stated.

Amino acid sequences for entries named in this document (tags omitted).
UniProt P20083, whole entry: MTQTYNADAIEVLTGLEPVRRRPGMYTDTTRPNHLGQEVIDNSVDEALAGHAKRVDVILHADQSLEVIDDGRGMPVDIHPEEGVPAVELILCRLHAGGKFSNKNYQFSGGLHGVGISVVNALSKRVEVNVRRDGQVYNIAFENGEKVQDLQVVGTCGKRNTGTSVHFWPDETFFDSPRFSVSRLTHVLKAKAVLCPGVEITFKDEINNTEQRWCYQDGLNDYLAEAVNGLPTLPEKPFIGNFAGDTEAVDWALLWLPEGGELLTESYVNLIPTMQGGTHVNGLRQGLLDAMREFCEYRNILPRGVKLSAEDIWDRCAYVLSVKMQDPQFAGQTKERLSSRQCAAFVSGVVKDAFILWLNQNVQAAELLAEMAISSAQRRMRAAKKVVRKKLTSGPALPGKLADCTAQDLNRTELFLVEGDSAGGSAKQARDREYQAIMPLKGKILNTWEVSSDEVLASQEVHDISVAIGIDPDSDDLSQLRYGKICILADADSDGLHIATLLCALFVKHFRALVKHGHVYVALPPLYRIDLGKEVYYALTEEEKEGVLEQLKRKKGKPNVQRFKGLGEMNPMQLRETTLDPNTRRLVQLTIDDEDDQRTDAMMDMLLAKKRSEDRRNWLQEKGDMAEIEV
UniProt P0AFI2, whole entry partner: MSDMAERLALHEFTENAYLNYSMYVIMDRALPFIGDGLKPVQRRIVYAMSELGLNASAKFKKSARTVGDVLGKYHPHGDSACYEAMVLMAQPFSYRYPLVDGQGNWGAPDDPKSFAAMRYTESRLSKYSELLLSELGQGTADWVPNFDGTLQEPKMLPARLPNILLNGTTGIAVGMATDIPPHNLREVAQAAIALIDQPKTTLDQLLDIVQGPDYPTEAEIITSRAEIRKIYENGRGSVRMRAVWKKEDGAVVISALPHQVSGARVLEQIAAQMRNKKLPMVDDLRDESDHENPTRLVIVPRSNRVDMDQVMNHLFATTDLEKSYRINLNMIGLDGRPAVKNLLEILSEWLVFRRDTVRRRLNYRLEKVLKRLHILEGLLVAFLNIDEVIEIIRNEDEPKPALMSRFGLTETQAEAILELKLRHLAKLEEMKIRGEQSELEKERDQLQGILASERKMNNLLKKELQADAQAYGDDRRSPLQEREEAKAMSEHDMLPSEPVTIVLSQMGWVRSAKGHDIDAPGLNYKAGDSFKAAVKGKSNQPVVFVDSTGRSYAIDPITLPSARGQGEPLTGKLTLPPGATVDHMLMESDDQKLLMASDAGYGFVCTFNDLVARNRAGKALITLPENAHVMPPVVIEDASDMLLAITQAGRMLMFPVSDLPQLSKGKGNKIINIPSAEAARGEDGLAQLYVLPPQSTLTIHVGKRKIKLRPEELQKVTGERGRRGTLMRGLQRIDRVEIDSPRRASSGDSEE

Target: E. coli ParE enzyme (Escherichia coli, UniProt P20083)
Experiment: E. coli ParE ATPase enzyme inhibition assay (ProFoldin kit, malachite green)
Settings: ATPase activity, mean ± SD (n = 3)

Compound: O=C(CSc1nc2ccccc2s1)Nc1ccc([N+](=O)[O-])cc1 [Compound 24]
- IC50 against E. coli ParE enzyme: < 1 μg/mL and 0.48 ± 0.03 μg/mL
